Anti-infective test results gathered from many reports (values: NIAID ChemDB through PubChem).

Common to all: growth or infection tests; organism: HIV-1; read by: XTT; endpoint: EC50

An empty or dashed field is not shown. ECn is the concentration giving n% inhibition of infection, replication or growth. Neighbouring rows are from separate reports.

smiles | changes | strain | cell line | result
CC(=O)OCC1OC(SC(C)=O)C(OC(C)=O)C(OC(C)=O)C1OC(C)=O |  |  | CEM MT-2 + CEM | >100 µg/mL
C[C@H]1CO[C@@H]2CN3C=C(C(=O)NCc4nc5c(s4)CCCCC5)C(=O)C(=O)C3C(=O)N12 |  | IIIB | CEM-SS | 0.0393 µM
COC(=O)N[C@H](C(=O)NN(CC[C@@]1(Cc2ccccc2)C(=O)N(C2c3ccccc3C[C@H]2O)C[C@H]1O)Cc1ccc(-c2ccncc2)cc1)C(C)(C)C |  |  | MT-4 | 2.5 µM
C[C@H]1CO[C@@H]2CN3C=C(C(=O)NCc4nc5ccc(F)cc5[nH]4)C(=O)C(=O)C3C(=O)N12 |  | IIIB | CEM-SS | 0.0948 µM
N#Cc1cc2c(N)c(C(=O)Nc3cccc(C(F)(F)F)c3)sc2nc1N |  | RF | CEM-SS | >63 µM
CN(C)C(=O)C1(C)CN(C)C(=O)c2c(O)c(=O)c(-c3ncc(Cc4ccc(F)cc4F)s3)cn21 |  | IIIB | CEM | 0.0059 µM
C[C@H]1CO[C@@H]2CN3C=C(C(=O)NCc4cnc5cnccn45)C(=O)C(=O)C3C(=O)N12 |  | IIIB | CEM-SS | 0.0207 µM
Nc1ccn([C@H]2CC[C@@H](CO)O2)c(=O)n1 |  | MN | MT-4 | 0.12 µg/mL
NC(=O)CCNC(=O)c1ccccc1SCc1ccc(OP2(=O)OCc3ccccc3O2)cc1 |  | HT/92/599 | PBMC | 20.4 µM
C[C@H]1CO[C@]23CCC[C@H]2N2C=C(C(=O)NCc4ccc(F)nc4F)C(=O)C(=O)C2CN13 |  | IIIB | CEM-SS | 0.0478 µM
CC(=O)OCC1OC(SC2C(OC(C)=O)OC(COC(C)=O)C(OC(C)=O)C2OC(C)=O)C(OC(C)=O)C(OC(C)=O)C1OC(C)=O |  |  | MT-2 | 8 µg/mL
CN1N=C(N)c2cn([C@@H]3O[C@H](COP(=O)(O)O)[C@@H](O)[C@H]3O)c3ncnc1c23 |  | MN |  | 0.01 µg/mL
COC(=O)N[C@H](C(=O)NN(CC[C@@]1(Cc2ccccc2)C(=O)N(C2c3ccccc3C[C@H]2O)C[C@@H]1O)Cc1ccc(-c2cccnc2)cc1)C(C)(C)C |  |  | MT-4 | 2.5 µM
CCC(C)[C@@H](C(=O)O)N(C)C(=O)c1ccccc1SSc1ccccc1C(=O)N(C)[C@H](C(=O)O)C(C)CC |  |  | CEM | >100 µM
NC(=O)CCNC(=O)c1ccccc1SC(=O)c1cccnc1 |  | RF | CEM | 2.9 µM
C[C@H]1CO[C@@H]2CN3C=C(C(=O)NCc4cn5ncsc5n4)C(=O)C(=O)C3C(=O)N12 |  | IIIB | CEM-SS | 0.0336 µM
CC1=C[C@@H](OCP(=O)(O)O)C[C@H]1n1cnc2c(N)ncnc21 |  |  | MT-4 | 85 µM
CC1=C(C)CC(COCP(=O)(O)O)(n2ccc(N)nc2=O)C1 |  |  | MT-4 | 99 µM
C[N+](C)(C)C.C[N+](C)(C)C.C[N+](C)(C)C.C[N+](C)(C)C.O=S(=O)([O-])c1cc(N=Nc2cc(S(=O)(=O)[O-])c3cccnc3c2O)ccc1/C=C/c1ccc(N=Nc2cc(S(=O)(=O)[O-])c3cccnc3c2O)cc1S(=O)(=O)[O-] |  |  | CEM | 0.17 µM
C[C@H]1CO[C@@H]2CN3C=C(C(=O)NCc4nnc5n4CCCC5)C(=O)C(=O)C3C(=O)N12 |  | IIIB | CEM-SS | 0.0304 µM
COCc1cc(C)nc2sc(C(=O)Nc3ccc(C(=O)OC)cc3)c(N)c12 |  | RF | CEM-SS | >3 µM
CC1=C(C)CC(COCP(=O)(O)O)(n2cnc3c(N)ncnc32)C1 |  |  | MT-4 | 97 µM
COC(=O)N[C@H](C(=O)NN(CC[C@@]1(Cc2ccccc2)C(=O)N(C2c3ccccc3C[C@H]2O)C[C@@H]1O)Cc1ccc(-c2ccccn2)cc1)C(C)(C)C |  |  | MT-4 | 2.5 µM
CCn1nc(C)c(CNC(=O)C2=CN3C[C@H]4OC[C@H](C)N4C(=O)C3C(=O)C2=O)c1C |  | IIIB | CEM-SS | 0.0309 µM
Cc1cc(C)cc(C(=O)c2c(C(C)C)c(=O)[nH]c(=O)n2CC2CC2)c1 |  | IIIB | CEM | 0.0002 µM
Cc1ccc(NC(=O)c2ccccc2SSc2ccccc2C(=O)Nc2ccc(C)cc2)cc1 |  |  | CEM | 9.1 µM
Cc1nnsc1CNC(=O)C1=CN2C[C@H]3OC[C@H](C)N3C(=O)C2C(=O)C1=O |  | IIIB | CEM-SS | 0.0604 µM
CC(=O)Nc1ccc(SSc2ccc(NC(C)=O)cc2C(N)=O)c(C(N)=O)c1 |  | AZT-resistant | MT-4 | 1.6 µM
CCc1c(C(=O)c2cc(C)cc(C)c2)n(CC2CC=CC2)c(=O)[nH]c1=O |  | IIIB | CEM | 0.0002 µM
COC(=O)N[C@H](C(=O)NN(CC[C@@]1(Cc2ccccc2)C(=O)N(C2c3ccccc3C[C@H]2O[Si](C)(C)C(C)(C)C)C[C@@H]1O[Si](C)(C)C(C)(C)C)Cc1ccc(Br)cc1)C(C)(C)C |  |  | MT-4 | >10 µM
CCCc1cc(=O)oc2c3c(c4c(c12)OC(C)(C)CC4)O[C@@H](C)[C@H](C)[C@@H]3O | RT-Y181C | Diphenyl sulfone-resistant (RT-Y181C) | CEM + CEM-SS | <0.01 µM
CC[C@H](C)[C@H](NC(=O)c1ccccc1SSc1ccccc1C(=O)N[C@H](C(=O)O)[C@@H](C)CC)C(=O)O |  | AZT-resistant | MT-2 | 6.4 µM
CCc1c(Sc2cc(C)cc(C)c2)n(CC2CCC2)c(=O)[nH]c1=O |  | IIIB | CEM | 0.002 µM
COCc1cc(C)nc2sc(C(=O)Nc3ccc(NC(C)=O)cc3)c(N)c12 |  | RF | CEM-SS | >63 µM
CCCNC(=O)c1ccccc1SSc1ccccc1C(=O)NCCC |  |  | CEM | >19 µM
OCC1OC(SC2C(OCc3ccccc3)OC(CO)C(O)C2O)C(O)C(O)C1O |  |  | CEM MT-2 + CEM | >100 µg/mL
Cc1cc(C)c2c(N)c(C(=O)Nc3cccc(F)c3)sc2n1 |  | RF | CEM-SS | >100 µM
OCC1OC(SC2C(O)C(O)OC(CO)C2O)C(O)C(O)C1O |  |  | CEM MT-2 + CEM | >100 µg/mL
CCc1c(Oc2cc(C)cc(C)c2)n(CC2CC2)c(=O)[nH]c1=O |  | IIIB | CEM | 0.001 µM
Nc1ccccc1C(=O)Nc1ccc(S(N)(=O)=O)cc1 |  |  | CEM | >100 µM
O=S(=O)(O)c1cc(N=Nc2cc(S(=O)(=O)O)c3ccccc3c2O)ccc1/C=C/c1ccc(N=Nc2cc(S(=O)(=O)O)c3ccccc3c2O)cc1S(=O)(=O)O |  |  | CEM | 0.49 µM
COC(=O)N[C@H](C(=O)NN(CCC[C@@]1(Cc2ccccc2)C(=O)N(C2c3ccccc3C[C@H]2O)C[C@H]1O)Cc1ccc(-c2ccccn2)cc1)C(C)(C)C |  |  | MT-4 | 2.5 µM
NS(=O)(=O)c1ccccc1NC(=O)c1ccccc1SSc1ccccc1C(=O)Nc1ccccc1S(N)(=O)=O |  |  | CEM | 2.9 µM

Repeating the first 6 entries:

smiles	changes	strain	cell line	result
CC(=O)OCC1OC(SC(C)=O)C(OC(C)=O)C(OC(C)=O)C1OC(C)=O			CEM MT-2 + CEM	>100 µg/mL
C[C@H]1CO[C@@H]2CN3C=C(C(=O)NCc4nc5c(s4)CCCCC5)C(=O)C(=O)C3C(=O)N12		IIIB	CEM-SS	0.0393 µM
COC(=O)N[C@H](C(=O)NN(CC[C@@]1(Cc2ccccc2)C(=O)N(C2c3ccccc3C[C@H]2O)C[C@H]1O)Cc1ccc(-c2ccncc2)cc1)C(C)(C)C			MT-4	2.5 µM
C[C@H]1CO[C@@H]2CN3C=C(C(=O)NCc4nc5ccc(F)cc5[nH]4)C(=O)C(=O)C3C(=O)N12		IIIB	CEM-SS	0.0948 µM
N#Cc1cc2c(N)c(C(=O)Nc3cccc(C(F)(F)F)c3)sc2nc1N		RF	CEM-SS	>63 µM
CN(C)C(=O)C1(C)CN(C)C(=O)c2c(O)c(=O)c(-c3ncc(Cc4ccc(F)cc4F)s3)cn21		IIIB	CEM	0.0059 µM